Tests used:
Human betaherpesvirus 5 = test: Concentration required for 50% inhibition of HCMV replication was measured using a Plaque reduction assay
Human alphaherpesvirus 1 = test: Antiviral activity was measured by plaque assay against HSV-1 virus by ELISA method

O=[N+]([O-])c1cc2nc(Cl)[nH]c2cc1[N+](=O)[O-]
IC50 (Human betaherpesvirus 5): 38 µM
IC50 (Human alphaherpesvirus 1): > 100 µM

Source: ChEMBL document CHEMBL1129961, “Design, synthesis, and antiviral evaluation of 2-chloro-5,6-dihalo-1-beta-D-ribofuranosylbenzimidazoles as potential agents for human cytomegalovirus infections” (J Med Chem, 1997)
